US20150086555A1 (THERACLONE SCIENCES, published 2015)

B1: TCN-560 (5084_P10) (antibody, V domains shown)
VH: EVQLVESGGGLVQPGGSLRLSCAASGFIFRNYWMSWVRQAPGKGLEWVANIKQDGREKYYVDSLRGRVNISRDNAENSLYLHMNSLRVEDTAVYFCARARMVVVTGDGFDVWGHGTMVTVSS
VL: DIQMTQSPSSLSASVGDRVTITCRASQNIKRYFNWYQQKPGKAPKLLIYAASNLENGVPSRFSGSGSGTDFTLTISSLQPEDFATYYCQQSFSKSWTFGQGTNVDIK
B2: TCN-532 (5262_H18) (antibody, V domains shown)
VH: QVQLQESGPGLVKPSETLSLTCTVSGGSVSSETYYWSWIRQPPGKGLEWIGYIYYIGNTDYRPSLKSRVTISLDTSKNQFSLKLSSVTAADTAVYYCARGAYYDSSGYPAFYIWGQGTMVTVSS
VL: QSVLTQPPSVSGAPGQRVTISCTGSSSNIGSDYDVHWYKQLPGTAPKLLIFGNSNRPSGVPDRFSGSKSGTSASLAITGLQAEDEADYYCQSYDSSLSGFHVFGSGTKVTVL
B3: TCN-557 (5081_A04) (antibody, V domains shown)
VH: QVQLVQSGAEVKKPGASVKVSCKASGHTFTGYYIHWVRQAPGQGLEWMGWINPDSGATSSAQNFQGRVTMTGDTSSSTAYMELSRLSFDDTAVYYCARVLFTSPFDFWGEGTLVTVSS
VL: QAVVTQEPSLAVSPGGTVTLTCGSSTGAVTRGHYPYWFQQKPGQAPRALIYDSAGNRHSWTPARFSGSLLGGKAALTLSGAQPEDEAEYYCLLSYSGVWVFGGGTKLTVL
B4: TCN-531 (5091_H13) (antibody, V domains shown)
VH: EVQLVESGGDLVQPGRSLKLSCTGSGFTFGDYGVTWVRQAPGKGLEWVGFIRTRPWGGTADTAASVKGRFTISRDDSKSLAYLQMNSLKTEDTAVYYCCRDAPPNVEVASMTNWYFDLWGRGTLVTVSS
VL: DIQLTQSPSSLSASVGDRVTITCRASQGILNCLAWYQQKPGKVPNLLMYAASTLQSGVPSRFSGSGFGTDFTLTISSLQPEDVATYYCQTYGGVSTFGGGTKVEIR
B5: TCN-555 (5246_L16) (antibody, V domains shown)
VH: QVQLVQSGAEVKRPGSSVKVSCTASGGIFRKNAISWVRQAPGQGLEWMGGIIAVFNTANYAQKFQNRVKITADESGNTAYMELSSLTSDDTAVYYCASHPKYFYGSGSYPDFWGQGTLVTVSS
VL: QSALTQPRSVSGSPGQSITISCTGGSSDIGASNSVSWYQQHPGKAPKLVIFDVTERPSGVPHRFSGSKSGNTASLTVSGLQPDDEADYFCCAYGGKYLVVFGGGTKVTVL
B6: TCN-529 (5297_H01) (antibody, V domains shown)
VH: QITLRESGPTLVKPTQTLTLTCTFSGFSLSTNGVNVGWIRQPPGKALEWLALIYWDDDKRYSPSLKRRLTITKDTSKNQVVLTLTNMDPVDTATYYCAHRPDFYGDFEYWGPGTLVTVSS
VL: QSALTQPASVSGSPGQSITISCTGSSSDIGGYNYVSWYQQHPGKAPKLMIYDVNNRPSGVSNRFSGSKSGNTASLTISGLQTDDEADYYCGSYTGSPHYVFGTGTKVTVL
B7: TCN-523 (5248_A17) (antibody, V domains shown)
VH: QVQLVQSGAEVKKPGSSVKVSCKASGGSFSNYAFSWVRQAPGQGLEWMGGTIPLLGTTNYAQKFQGRVTISADQFTSTAYMELGSLRSEDTAVYYCTRRKMTTAFDSWGQGTLVTVSS
VL: QPVLTQPPSASASLGASVTLTCTLSSAYSNYKVDWYQQRPGKGPRFVMRVGTGGIVGSKGDGIPDRFSVLGSGLNRYLTIKNIQEEDESDYHCGADHGSGSNFVSPYVFGGGTKLTVL
B8: TCN-528 (5087_P17) (antibody, V domains shown)
VH: QVQLVQSGSEVKKPGASVKVSCKASGYTFTNYDINWIRQAPGQGLEWMGWINPNSGTTGSAQRFQGRVTITVDTSITTVYMELSSLRSDDTAIYYCARGRELLRLQHFLTDSQSERRDCFDPWGQGTLVTVSS
VL: DIQMTQSPSSLSASVGDRVTITCRANQDIGIYLNWYQQNPGKVPKLLLHGASSLQGGVPSRFSASGSGTDFTLTIHSLQPEDLATYYCQQSRRLPYTFGQGTRVELK
B9: TCN-535 (5246_P19) (antibody, V domains shown)
VH: QVQLVQSGSEVKKPGTSVKVSCTASGSVFTNYGISWVRQAPGQGLEWMGGIIPLFGAAKYAQKFQGRVTITADESTKTVYMELSRLTSKDTAIYFCAKAPRVYEYYFDQWGQGTPVTVSS
VL: EIVLTQSPGTLSLSPGERATLSCRASQSVSSSQLAWYQQKPGQAPRLIIYGASTRATGIPDRFSGSGSGTDFTLTIGRLEPEDFAVFFCQQYSTSPPTFGQGTKVDFK
B10: TCN-558 (5248_H10b) (antibody, V domains shown)
VH: QVQLVQSGSEVKKPGTSVKVSCTASGSVFTNYGISWVRQAPGQGLEWMGGIIPLFGAAKYAQKFQGRVTITADESTKTVYMELSRLTSKDTAIYFCAKAPRVYEYYFDQWGQGTPVTVSS
VL: EIVMTQFPATLSVSPGERVTLSCRASQSVSNNLAWYQQKPGQPPRLLIYDASTRATGVPAKFSGTGSGTEFTLSISSLQSEDFAVYYCQQYHNWPPSYSFGLGTKLEIK
B11: TCN-552 (5249_I23) (antibody, V domains shown)
VH: QVQVVQSGAEVKKPGSSVRVSCQASGGTFMNYAIIWVRRAPGQGLEWMGGIIPVFPTPNYAQMFQGRVTISTDESRSTSFLELTNLRYEDTAVYYCARRIYHGGNSGFDFWGQGTLVTVSS
VL: EIVLTQSPATLSLSPGERATLSCRASQSVGNYLAWYQQKPGQAPRLLIYDSSNRAPGIPARFSGSGSGTDFTLTISSLAPEDFAVYYCQQRSKWPPMYSFGHGTKLEIK
B12: TCN-527 (5086_C06) (antibody, V domains shown)
VH: QVQLQESGPGLVKPSETLSLNCAVSGGSISNYYWSWIRQPPGKGLEWIGYISYNGRPKYNPSLTSRVTISVDTSKDQFSLELRSVTAADTALYYCARETRFGELLSPYDAFEIWGQGTMVTVSS
VL: DIQMTQSPSSLSASVGDRVTMTCRASQNIRSYLNWYQQRPGTAPKLLIYAASTLHSGVPSRFSGGGSGTDFTLTINNLQPEDFASYYCQQSYDNPQTFGQGTKVEIK
B13: TCN-553 (5261_C18) (antibody, V domains shown)
VH: QVQVVQSGTEVKKPGSSVKVSCQTSGGRFMSYAITWVRQAPGQGLEWMGGIVPVFGTANYAQKFQGRVTITTDDSTRTAYMELSSLRSEDTAVYYCGFRYGSGYGFDSWGQGTLVTVSS
VL: EIVLTQSPGTLSLSPGERATLSCRASQSVSSSYLAWYQKKPGQAPRLLIYGASTRATGIPDRFTGSGSGTDFTLSISRLEPEDFAVYYCQHFGTSVFTFGGGTKVEIK
B14: TCN-538 (3206_O17) (antibody, V domains shown)
VH: QITLKESGPTLVKPTQTLTLTCVFSGFSLSITGVRVGWIRQPPGKALEWLALISWDDEKHYSPSLQSRLTITKDTSKNQVVLTMTNLDPVDTATYYCARSTDRGHVLRYFGWMLPGDAFDVWGQGTMVTVSS
VL: DIVMTQSPDFLPVSLGERATINCKSSQRVLYSSNNKNYLAWYQLKPGQPPKLIIYWASTRESGVPDRFSGSGSGTEFTLTISSLQAEDVAVYYCQQYYSRPYTFGQGTKLEIK
B15: TCN-526 (5084_C17) (antibody, V domains shown)
VH: EVLMVESGGGLVQPGGSVRLSCVASGFSFSSHWMTWVRQAPGKGLEWVANIEDDGGDKYYVDSVKGRFIISRDNAKNSVYLQMNSLRAEDTAVYFCARGSGSSDRSDYDPHYYYYLDVWGKGATVTVSS
VL: DIQLTQSPSSLSASVGDRVTITCRASQSISRYLNWYQQKPGKAPKLLLFAASTLLDGVPSRFSGSGSGTDFTLTISSLQPEDFATYYCQRNHSPSWTFGQGTRVEIK
B16: TCN-545 (5082_I15) (antibody, V domains shown)
VH: QVQLQQWGAGLLKPSETLSLSCAVFGGSFSDYYWTWIRQPPGKGLEWIGEIKHSGRTNYNPSLESRVTISVDTSKNQFSLKLSSVTAADTAIYYCARGTDPDTEGYCRSGSCSAFDFWGQGTLVTVSS
VL: EIVLTQSPGTLSLSPGERATLSCRASHFVNYRSLAWYQQTPGQVPRLLIYGASTRATGIPDRFSGSGSGTDFTLTISRLEPEDFAVYFCQQYGGSPRYTFGQGTRLEIK
B17: TCN-551 (5243_D01) (antibody, V domains shown)
VH: EVQLVQSGSEVKKPGESLKISCKGSGYSFSNYWIGWVRHMPGKGLEWMGIIYPGDSDTRYSPSFQGQVTMSADKSSSTVYLQWSSLKASDTAIYYCARRGGHSFGYGSGGDTHSEFDSWGQGTLVTVSS
VL: QSVLTQSPSVSAAPGQKVTISCSGSDSNIGDYFVCWYQHLPGKPPQLLIYENNKRPSGIPDRFSGSKSGTSATLGITGIQTGDEADYYCATWDGSLSAWVFGGGTKLTVL
B18: TCN-537 (3194_D21) (antibody, V domains shown)
VH: QVQLQQWGSGLLKPSETLSLTCAVYGGSFRDDYWTWIRQPPGKGLEWIGEINHSGRTNYNPSLKSRVTISVDTSLKQFSLKVISVTAADTAVYYCARGTSHVSRYFDWLPPTNWFDPWGQGTQVTVSS
VL: DIVLTQSPGTLSLSPGERATLSCRASQSVSSSYLAWYQQKPGQAPRLVMYGAATRATGIPDRFSGSGSGPDFTLTISRLEPEDFAMYYCQQYGNSPITFGQGTRLEIK

Tests used:
[1] = target: T1, Hemagglutinin (HA) of influenza A virus A/Wisconsin/67/05 H3N2, on whole virions (Influenza A virus A/Wisconsin/67/2005 …); assay: ELISA on coated inactivated whole virions; transfection supernatant, set 5
T1 construct: whole, on cells

[2] = target: Hemagglutinin (HA) of influenza A virus A/Japan/305/57 H2N2, on whole virions (Influenza A virus A/Japan/305/1957 …)
[3] = target: hemagglutinin on whole influenza A virions, A/Solomon Islands/3/06 H1N1 (Influenza A virus A/Solomon …)
[4] = target: hemagglutinin on whole influenza A virions, A/Wisconsin/67/05 H3N2 (Influenza A virus …)

| Binder | ELISA virus binding (OD450) [1] | ELISA virus binding (OD450) [2] | ELISA: Virus Binding (OD450) [3] | ELISA: Virus Binding (OD450) [4] |
| --- | --- | --- | --- | --- |
| B1 | 0.3 OD450 | 3.55 OD450 |  |  |
| B2 |  |  | 0.07 OD450 | 2.36 OD450 |
| B3 | 3.47 OD450 | 3.59 OD450 |  |  |
| B4 |  |  | 0.08 OD450 | 3.61 OD450 |
| B5 | 0.13 OD450 | 2.1 OD450 |  |  |
| B6 |  |  | 0.07 OD450 | 3.6 OD450 |
| B7 |  |  | 3.64 OD450 | 0.13 OD450 |
| B8 |  |  | 3.63 OD450 | 0.46 OD450 |
| B9 |  |  | 3.63 OD450 | 0.12 OD450 |
| B10 | 0.2 OD450 | 3.31 OD450 |  |  |
| B11 | 0.27 OD450 | 2.68 OD450 |  |  |
| B12 |  |  | 3.63 OD450 | 0.22 OD450 |
| B13 | 0.17 OD450 | 3.28 OD450 |  |  |
| B14 |  |  | 3.64 OD450 | 0.11 OD450 |
| B15 |  |  | 0.07 OD450 | 2.84 OD450 |
| B16 | 3.62 OD450 | 0.1 OD450 |  |  |
| B17 | 0.27 OD450 | 0.1 OD450 |  |  |
| B18 |  |  | 3.63 OD450 | 0.09 OD450 |
